Compound potency records, mixed from different reports. Data source: NIAID ChemDB in PubChem.

All rows: target-level tests

Lines come from different laboratories, so protocols vary. a–b is a range or a potency band. Inhibition is in % at the dose shown (toxicity tests: loss of growth or viability). ICn: concentration for n% inhibition. An empty or dashed field is not shown.

| smiles | read-out | target | tested at | strain or isolate | agent | read by | result |
|---|---|---|---|---|---|---|---|
| O=C(O)c1sc(-c2ccc3c(c2)OCO3)cc1N(C1CCCC1)S(=O)(=O)c1ccc(Cl)cc1Cl | IC50 | NS3 ATPase | - | - | Hepatitis C virus | - | <5 µM |
| O=C(O)C(Cc1ccccc1)N(Cc1ccc(-c2ccc(Cl)s2)o1)C(=O)c1ccc(Cl)cc1Cl | IC50 | RNA-dependent RNA polymerase | - | - | Hepatitis C virus | - | <5 µM |
| CNC(=O)c1c(-c2ccc(F)cc2)oc2cc(N)c(OCc3ccccc3)cc12 | IC50 | Nonstructural protein 5B | - | - | Hepatitis C virus | - | ≤0.5 µM |
| CCc1cc2c(cc1F)c(C#N)c(-c1ccc(S(=O)(=O)N[C@@H](C)C(F)(F)F)cn1)n2-c1ncccn1 | IC50 | Nonstructural protein 4B | - | 1b | Hepatitis C virus | PCR | 11.6 µM |
| CNC(=O)c1cnc(SC)nc1Nc1ccc2[nH]ncc2c1 | IC50 | Reverse transcription | - | - | Hepatitis B virus | - | <0.1 µg/mL |
| O=C(Nc1ccc2[nH]ncc2c1)c1cc(NCCc2ccccn2)c(F)cc1F | inhibition | Reverse transcriptase | 1 µg/mL | - | Hepatitis B virus | - | 58% |
| CC(C)(C)c1ccc(/C=C2\Oc3cccc(O)c3C2=O)cc1 | inhibition | HCV NS5B delta21 | 20 µM | J4 genotype 1B | Hepatitis C virus | FRET | 61% |
| CC(=O)c1cccc(-c2cc(N(C)C(=O)c3ccc(C)cc3)c(C(=O)O)s2)c1 | IC50 | NS3 ATPase | - | - | Hepatitis C virus | - | 5–20 µM |
| CSc1ncc(C(=O)NN2CCN(C)CC2)c(Nc2ccc3cn[nH]c3c2)n1 | IC50 | Reverse transcription | - | - | Hepatitis B virus | - | <1 µg/mL |
| C=C[C@H]1C[C@@]1(NC(=O)[C@@H]1C[C@@H](Oc2ccnc3cc(Cl)ccc23)CN1C(=O)[C@@H](NC(=O)OC1CCCC1)C(C)(C)C)C(=O)NS(=O)(=O)C1(CCC)CC1 | IC50 | NS3/NS4A protease | - | BMS | Hepatitis C virus | - | <0.05 µM |
| COc1cccc(CN(C(=O)CC(C)C)c2cc(-c3ccccc3)sc2C(=O)O)c1 | IC50 | NS3 ATPase | - | - | Hepatitis C virus | - | <5 µM |
| COc1nc(NCCc2c[nH]c3ccccc23)nc(Nc2ccc3[nH]ncc3c2)n1 | inhibition | DNA polymerase | 1 µg/mL | - | Hepatitis B virus | - | 43% |
| C=CCC(NC(=O)C(=O)C(=O)C(CC=C)NC(=O)[C@H](CC1CCCCC1)NC(=O)[C@@H](NC(=O)[C@H](CC(C)C)NC(=O)[C@@H](CC(C(=O)O)C(=O)O)NC(=O)[C@H](CC(=O)O)NC(C)=O)[C@@H](C)CC)C(=O)O | IC50 | NS3/NS4A serine protease | - | - | Hepatitis C virus | - | 0.00025 µM |
| O=C(CN(c1cc(C(F)(F)F)ccc1Cl)S(=O)(=O)c1ccccc1)NCc1ccncc1 | IC50 | HBeAg production | - | HepDE19 | Hepatitis B virus | ELISA | 4.55 µM |
| CN(C)CCNc1cc(C(=O)Nc2ccc3[nH]ncc3c2)c(F)cc1F | inhibition | Reverse transcriptase | 1 µg/mL | - | Hepatitis B virus | - | 68% |
| CCNC(=O)c1c(-c2ccc(F)cc2)oc2cc(-c3c(C)noc3C)c(OC)cc12 | IC50 | Nonstructural protein 5B | - | - | Hepatitis C virus | - | ≤0.5 µM |
| O=C(Nc1ccc2[nH]ncc2c1)c1cc(NCCN2CCCC2)c(F)cc1F | inhibition | Reverse transcriptase | 1 µg/mL | - | Hepatitis B virus | - | 76% |
| COC(=O)[C@H](NC(=O)c1cnc(SC)nc1Nc1ccc2cn[nH]c2c1)[C@@H](C)O | IC50 | Reverse transcription | - | - | Hepatitis B virus | - | 0.01 µg/mL |
| CNC(=O)c1c(-c2ccc(F)cc2)oc2cc(N(C)S(C)(=O)=O)c(OCC(C)=O)cc12 | IC50 | Nonstructural protein 5B | - | - | Hepatitis C virus | - | ≤0.5 µM |
| C=CCC(NC(=O)[C@H](CC1CCCCC1)NC(=O)[C@@H](NC(=O)[C@H](CC(C)C)NC(=O)[C@@H](CC(C(=O)O)C(=O)O)NC(=O)[C@@H](N)CC(=O)O)[C@@H](C)CC)C(=O)C(O)C(=O)N[C@@H](Cc1ccc(OC)cc1)C(=O)O | IC50 | NS3/NS4A serine protease | - | - | Hepatitis C virus | - | 165 µM |
| O=C1/C(=C/c2ccccc2O)Oc2cccc(O)c21 | IC50 | HCV NS5B delta21 | - | J4 genotype 1B | Hepatitis C virus | FRET | 11.1 µM |
| CC(Cc1ccccn1)Nc1cc(C(=O)Nc2ccc3cn[nH]c3c2)c(F)cc1F | inhibition | Reverse transcriptase | 0.1 µg/mL | - | Hepatitis B virus | - | 35% |
| COc1nc(Nc2ccc3cn[nH]c3c2)nc(N2CCN(CCO)CC2)n1 | inhibition | DNA polymerase | 0.01 µg/mL | - | Hepatitis B virus | - | 3% |
| CNC(=O)c1cnc(SC)nc1Nc1ccc2cn[nH]c2c1 | IC50 | Reverse transcription | - | - | Hepatitis B virus | - | ~0.01 µg/mL |
| C=CC1C[C@@]1(NC(=O)[C@@H]1C[C@@H](Oc2cc(-c3csc(NC(C)C)n3)nc3cc(OC)ccc23)CN1C(=O)[C@@H](NC(=O)OC(C)(C)C)C(C)(C)C)C(=O)NS(=O)(=O)C1(CC2CC2)CC1 | IC50 | NS3/NS4A protease | - | BMS | Hepatitis C virus | - | <0.05 µM |
| C=CCC(NC(=O)[C@H](C)NC(=O)[C@@H](NC(=O)[C@@H](NC(=O)[C@H](CC(=O)O)NC(=O)[C@H](CCC(=O)O)NC(C)=O)C(C)C)C(C)C)C(=O)C(=O)C(=O)N[C@@H](C)C(N)=O | IC50 | NS3/NS4A serine protease | - | - | Hepatitis C virus | - | 6.5 µM |
| CSc1ncc(C(=O)NCCCn2ccnc2)c(Nc2ccc3cn[nH]c3c2)n1 | IC50 | Reverse transcription | - | - | Hepatitis B virus | - | <0.1 µg/mL |
| COc1cccc(-c2csc(CN(C(=O)c3ccc(Cl)cc3Cl)C(Cc3ccccc3)C(=O)O)c2)c1 | IC50 | RNA-dependent RNA polymerase | - | - | Hepatitis C virus | - | <5 µM |
| CSc1ncc(C(=O)NCCN2CCOCC2)c(Nc2ccc3cn[nH]c3c2)n1 | IC50 | Reverse transcription | - | - | Hepatitis B virus | - | <1 µg/mL |
| CNC(=O)c1c(-c2ccc(F)cc2)oc2cc(-c3c(C)n[nH]c3C)c(OC)cc12 | IC50 | Nonstructural protein 5B | - | - | Hepatitis C virus | - | ≤0.5 µM |
| COCCNc1nc(Nc2ccc3[nH]ncc3c2)nc(OC)n1 | inhibition | Nonstructural protein 5B | 1 µg/mL | - | Hepatitis C virus | - | 61% |
| O=C(O)C(Cc1ccccc1)N(Cc1ccc(-c2ccncc2)s1)C(=O)c1ccc(Cl)cc1Cl | IC50 | RNA-dependent RNA polymerase | - | - | Hepatitis C virus | - | <5 µM |
| CCC(=O)N(Cc1ccc([N+](=O)[O-])cc1)c1cc(-c2ccccc2)sc1C(=O)O | IC50 | NS3 ATPase | - | - | Hepatitis C virus | - | 5–20 µM |
| CC[C@H](C)[C@H](NC(=O)[C@H](CC(C)C)NC(=O)[C@@H](CC(C(=O)O)C(=O)O)NC(=O)[C@H](CC(=O)O)NC(C)=O)C(=O)N[C@H](C(=O)N[C@@H](CS)C(=O)O)C1CCCCC1 | IC50 | NS3/NS4A serine protease | - | - | Hepatitis C virus | - | 6.8 µM |
| Cc1cccc(-c2ccc(CN(C(=O)c3ccc(Cl)cc3Cl)[C@@H](Cc3ccccc3)C(=O)O)o2)c1 | IC50 | RNA-dependent RNA polymerase | - | - | Hepatitis C virus | - | <5 µM |
| COc1nc(Nc2ccc3[nH]ncc3c2)nc(N2CCN(CCO)CC2)n1 | inhibition | Nonstructural protein 5B | 10 µg/mL | - | Hepatitis C virus | - | 68% |
| O=C(O)[C@H](Cc1ccccc1)N(Cc1cccc(-c2cc3ccccc3o2)c1)C(=O)c1ccc(Cl)cc1Br | IC50 | RNA-dependent RNA polymerase | - | - | Hepatitis C virus | - | <5 µM |
| CC(C)N(C(=O)c1ccc(Cl)cc1Cl)c1cc(-c2nccs2)sc1C(=O)O | IC50 | NS3 ATPase | - | - | Hepatitis C virus | - | <5 µM |
| O=C(Nc1ccc2cn[nH]c2c1)c1cc(NCCc2ccccn2)c(F)cc1F | inhibition | Reverse transcriptase | 1 µg/mL | - | Hepatitis B virus | - | 68% |
| CSc1ncc(C(=O)NCc2cccnc2)c(Nc2ccc3[nH]ncc3c2)n1 | IC50 | Reverse transcription | - | - | Hepatitis B virus | - | <0.01 µg/mL |
| C=C[C@H]1C[C@@]1(NC(=O)[C@@H]1C[C@@H](Oc2cc(C3CC3)nc3cc(Cl)ccc23)CN1C(=O)[C@@H](NC(=O)OC(C)(C)C)C(C)(C)C)C(=O)OCC | IC50 | NS3/NS4A protease | - | BMS | Hepatitis C virus | - | <0.05 µM |
| COc1nc(Nc2ccc3cn[nH]c3c2)nc(N2CCOCC2)n1 | inhibition | DNA polymerase | 1 µg/mL | - | Hepatitis B virus | - | 58% |
| C=CC1C[C@@]1(NC(=O)[C@@H]1C[C@@H](Oc2cc(-c3ccccc3)nc3cc(OC)ccc23)CN1C(=O)[C@@H](NC(=O)OCCOC)C(C)(C)C)C(=O)NS(=O)(=O)C1(Cc2ccccc2)CC1 | IC50 | NS3/NS4A protease | - | BMS | Hepatitis C virus | - | 0.05–0.5 µM |
| O=C(O)[C@H](Cc1ccccc1)N(Cc1ccc(-c2cc(F)cc(F)c2)o1)C(=O)c1ccc(Cl)cc1Cl | IC50 | RNA-dependent RNA polymerase | - | - | Hepatitis C virus | - | <5 µM |
| COCCNc1nc(Nc2ccc3cn[nH]c3c2)nc(OC)n1 | inhibition | DNA polymerase | 1 µg/mL | - | Hepatitis B virus | - | 75% |
| O=C(O)C(Cc1ccccc1)N(Cc1ccc(-c2ccccc2C(F)(F)F)o1)C(=O)c1ccc(Cl)cc1Cl | IC50 | RNA-dependent RNA polymerase | - | - | Hepatitis C virus | - | <5 µM |
| COc1nc(Nc2ccc3[nH]ncc3c2)nc(N2CCC(C(N)=O)CC2)n1 | inhibition | DNA polymerase | 1 µg/mL | - | Hepatitis B virus | - | 59% |

Repeating the final 3 entries:

smiles | read-out | target | tested at | strain or isolate | agent | read by | result
COCCNc1nc(Nc2ccc3cn[nH]c3c2)nc(OC)n1 | inhibition | DNA polymerase | 1 µg/mL | - | Hepatitis B virus | - | 75%
O=C(O)C(Cc1ccccc1)N(Cc1ccc(-c2ccccc2C(F)(F)F)o1)C(=O)c1ccc(Cl)cc1Cl | IC50 | RNA-dependent RNA polymerase | - | - | Hepatitis C virus | - | <5 µM
COc1nc(Nc2ccc3[nH]ncc3c2)nc(N2CCC(C(N)=O)CC2)n1 | inhibition | DNA polymerase | 1 µg/mL | - | Hepatitis B virus | - | 59%